Results of unrelated studies side by side (data: NIAID ChemDB).

Shared fields: tests in culture; species: Mycobacterium fortuitum

Rows are shuffled and stem from different studies. An empty or dashed field is not shown. MIC50, MIC90 and the like: level of inhibition, or share of isolates inhibited.

| smiles | strain or isolate | method | measure | value |
|---|---|---|---|---|
| CCc1cc(C(N)=S)ccn1 | 18 strains | - | MIC50 | 32 µg/mL |
| Cc1noc2ncn(/N=C/c3ccccc3)c(=O)c12 | PCM 672 | resazurin | MIC90 | >100 µg/mL |
| NC[C@H]1O[C@H](O[C@H]2[C@H](O)[C@@H](O[C@H]3O[C@H](CO)[C@@H](O)[C@H](N)[C@H]3O)[C@H](N)C[C@@H]2N)[C@H](O)[C@@H](O)[C@@H]1O | ATCC 6841 | - | MBC | >64 µg/mL |
| Cc1noc2nc(C)n(/N=C/c3ccccc3)c(=O)c12 | PCM 672 | resazurin | MIC90 | >100 µg/mL |
| CC1CN(c2cc3c(cc2F)c(=O)c(C(=O)O)cn3-c2ccc(F)cc2F)CCN1 | 25 isolates | - | MBC90 | 8 µg/mL |
| CO[C@@]1(NC(=O)Cn2cnnn2)C(=O)N2C(C(=O)O)=C(CSc3nnc(C)s3)CSC21 | 1049 | - | MIC | 50 µg/mL |
| Cc1noc(N)c1C(=O)N/N=C/c1ccccc1 | PCM 672 | resazurin | MIC90 | >100 µg/mL |
| C[C@@H](O)[C@H]1C(=O)N2C(C(=O)O)=C(SCCN=CN)C[C@H]12 | 914-8 | - | MIC | 1.56 µg/mL |
| C[C@@H]1CN(c2c(F)c(N)c3c(=O)c(C(=O)O)cn(C4CC4)c3c2F)C[C@H](C)N1 | 25 isolates | - | MIC50 | 0.5 µg/mL |
| Cc1ccc(/C=N/n2cnc3onc(C)c3c2=O)cc1 | PCM 672 | resazurin | MIC90 | >100 µg/mL |
| COc1c(N2CCNC(C)C2)c(F)cc2c(=O)c(C(=O)O)cn(C3CC3)c12 | 20 strains | - | MIC90 | 0.78 µg/mL |
| C[C@H]1C[C@H](N)CN1c1cc2c(cc1F)c(=O)c(C(=O)O)cn2-c1ccc(F)cc1F | ATCC 6841 | - | MBC | 8 µg/mL |
| CO[C@@]1(NC(=O)C2SC(=C(C(N)=O)C(=O)[O-])S2)C(=O)N2C(C(=O)[O-])=C(CSc3nnnn3C)CS[C@@H]21 | 1030-8 | - | MIC | 50 µg/mL |
| NCC[C@H](O)C(=O)N[C@@H]1C[C@H](N)[C@@H](O[C@H]2O[C@H](CN)[C@@H](O)[C@H](O)[C@H]2O)[C@H](O)[C@H]1O[C@H]1O[C@H](CO)[C@@H](O)[C@H](N)[C@H]1O | 31 isolates | - | MIC50 | 8 µg/mL |
| CC[C@H]1OC(=O)[C@H](C)[C@@H](O[C@H]2C[C@@](C)(OC)[C@@H](O)[C@H](C)O2)[C@H](C)[C@@H](O[C@@H]2O[C@H](C)C[C@H](N(C)C)[C@H]2O)[C@](C)(O)C[C@@H](C)CN(C)[C@H](C)[C@@H](O)[C@]1(C)O | 25 isolates | - | MBC90 | >8 µg/mL |
| CO[C@@]1(NC(=O)CSCC#N)C(=O)N2C(C(=O)O)=C(CSc3nnnn3C)CS[C@@H]21 | 1261 | - | MIC | 6.25 µg/mL |
| CC1COc2c(N3CCN(C)CC3)c(F)cc3c(=O)c(C(=O)O)cn1c23 | 25 isolates | - | MIC50 | 2 µg/mL |
| CO[C@@]1(NC(=O)Cc2cccs2)C(=O)N2C(C(=O)O)=C(COC(N)=O)CS[C@@H]21 | 1260 | - | MIC | 12.5 µg/mL |
| Clc1ccc2c(c1)nc1cc(Nc3ccccc3)c(=NC3CCCCC3)cc-1n2-c1ccccc1 | 6841 ATCC | - | MIC | 10 µg/mL |
| NC[C@@H]1O[C@H](O[C@H]2[C@@H](O)[C@H](O[C@@H]3[C@@H](O)[C@H](N)C[C@H](N)[C@H]3O[C@H]3O[C@H](CN)[C@@H](O)[C@H](O)[C@H]3N)O[C@@H]2CO)[C@H](N)[C@@H](O)[C@@H]1O | ATCC 6841 | - | MBC | 64 µg/mL |

A second listing of 2 rows from above:

smiles | strain or isolate | method | measure | value
COc1c(N2CCNC(C)C2)c(F)cc2c(=O)c(C(=O)O)cn(C3CC3)c12 | 20 strains | - | MIC90 | 0.78 µg/mL
CC1CN(c2cc3c(cc2F)c(=O)c(C(=O)O)cn3-c2ccc(F)cc2F)CCN1 | 25 isolates | - | MBC90 | 8 µg/mL